Here are results for 47 compounds from PubChem BioAssay AID602123 (The Scripps Research Institute Molecular Screening Center, 2011).

Chains of the proteins cited; added tags and fusions are not shown.
UniProt P0A9M0, whole entry: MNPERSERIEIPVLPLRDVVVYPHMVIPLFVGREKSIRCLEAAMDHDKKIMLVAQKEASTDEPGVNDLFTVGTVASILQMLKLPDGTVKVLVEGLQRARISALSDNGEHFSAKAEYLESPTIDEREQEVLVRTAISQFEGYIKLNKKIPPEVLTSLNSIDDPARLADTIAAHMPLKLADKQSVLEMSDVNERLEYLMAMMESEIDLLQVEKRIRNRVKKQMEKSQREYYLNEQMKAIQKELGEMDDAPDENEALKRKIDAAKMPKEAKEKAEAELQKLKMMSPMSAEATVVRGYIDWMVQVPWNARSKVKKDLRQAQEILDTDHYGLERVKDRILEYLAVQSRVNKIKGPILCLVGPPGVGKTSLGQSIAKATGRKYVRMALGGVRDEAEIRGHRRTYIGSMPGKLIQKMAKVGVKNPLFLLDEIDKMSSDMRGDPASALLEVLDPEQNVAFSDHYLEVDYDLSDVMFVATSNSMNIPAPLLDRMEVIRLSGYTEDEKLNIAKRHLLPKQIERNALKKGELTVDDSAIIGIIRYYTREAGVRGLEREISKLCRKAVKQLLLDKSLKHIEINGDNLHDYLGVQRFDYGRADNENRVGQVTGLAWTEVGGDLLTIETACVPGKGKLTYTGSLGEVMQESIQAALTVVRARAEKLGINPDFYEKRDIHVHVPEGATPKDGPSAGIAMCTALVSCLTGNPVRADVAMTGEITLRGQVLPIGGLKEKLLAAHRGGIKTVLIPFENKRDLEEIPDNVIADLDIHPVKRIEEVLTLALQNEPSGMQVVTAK

The list shows a part of the results, in another mix than the full data. Calls of active or inactive are those of the source. No stated cut-off is given here; in the data, active means inhibition above about 13% (passing the limit was not always enough); inactive means the rest.

This test has as its target Lon protease (Escherichia coli (strain K12)) (UniProt P0A9M0). Nature of the test: E. coli eLon protease inhibition – biochemical, fluorescence polarization, primary screen (AID 602123).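 Further: 0% = enzyme with probe and DMSO and 100% = no enzyme.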 To be noted: purified E. coli Lon protease, at 7.94 µM, active compounds read high.
On to `O=C(OC1CN2CCC1CC2)C1c2ccccc2Oc2ccccc21` (configuration not stated), for which the inhibition was inactive: 9.46%.

For `CCCCn1nnnc1C(c1ccc(OC)cc1)N1CCC(n2c(=O)[nH]c3ccccc32)CC1` (configuration not stated), the inhibition is inactive: -5.86%.

As to `CCOC(=O)N1CCC(Nc2ccc(OC)cc2)CC1`, the inhibition was inactive: 3.35%.

With `Cc1cc(C)cc(N(C(=O)c2ccccc2)C2CCN(C(=O)OC(C)(C)C)CC2)c1`, the inhibition is inactive: -10.1%.

Take `O=C(NCC1(N2CCCCC2)CCCCC1)c1ccc(Cl)nc1`: the inhibition is inactive: -9.01%.

In the case of `O=c1[nH]c2ccccc2n1C1CCN(C(c2ccccc2OC(F)(F)F)c2nnnn2C2CCCCC2)CC1` (configuration not stated), the inhibition is inactive: -7.37%.

As to `O=C(NCC1(N2CCOCC2)CCCCC1)c1cc2ccccc2o1`, the inhibition is inactive: 1.3%.

For the compound `CCOC(=O)N1CCC(Nc2ccc(F)cc2)CC1`, the inhibition was inactive: -3.93%.

In the case of `COc1ccc(NC2CCN(CCc3ccccc3)CC2)c(OC)c1`, the inhibition is inactive: 1.36%.

With `CCCCOc1ccc(C(=O)NCC2(N3CCOCC3)CCCCC2)cc1`, the inhibition is inactive: -0.08%.

Turning to `O=P1(N(CCCl)CCCl)SCCCS1`, the inhibition is inactive: -3.84%.

Regarding `CCCCn1nnnc1C(c1cc2ccccc2o1)N1CCC(n2c(=O)[nH]c3ccccc32)CC1` (configuration not stated), the inhibition was inactive: -16.1%.

As for `O=C(NCC1(N2CCCCC2)CCCCC1)c1ccc(F)cc1`, the inhibition is inactive: 9.29%.

Regarding `O=C1CCN(Cc2ccccc2)CC1`, the inhibition was inactive: -12.4%.

With `CC(C)(C)n1nnnc1C(c1ccccc1)N1CCC(n2c(=O)[nH]c3ccccc32)CC1` (configuration not stated), the inhibition was inactive: -9.66%.

As to `CCOc1ccc(C)cc1CN(CCCl)CCCl`, the inhibition is inactive: -1.32%.

On to `CCOC(=O)N1CCC(Nc2cccc(C)c2)CC1`, for which the inhibition is inactive: -0.21%.

As to `COc1cc(C(=O)NCC2(N(C)C)CCCCC2)ccc1OC(F)F`, the inhibition was inactive: 0.79%.

As to `O=c1[nH]c2ccccc2n1C1CCN(C(c2cccc3ccccc23)c2nnnn2C2CCCC2)CC1` (configuration not stated), the inhibition was inactive: -8.26%.

Regarding `O=c1[nH]c2ccccc2n1C1CCN(C(c2ccccc2)c2nnnn2C2CCCCC2)CC1` (configuration not stated), the inhibition is inactive: -6.22%.

Regarding `O=c1[nH]c2ccccc2n1C1CCN(C(c2ccccc2OC(F)(F)F)c2nnnn2C2CCCC2)CC1` (configuration not stated), the inhibition is inactive: 3.36%.

Consider `N#CC1(Nc2ccccc2)CCN(CCc2ccccc2)CC1`, for which the inhibition was inactive: 1.94%.

Consider `CCN1CCC(Nc2ccc(Cl)cc2)CC1`, for which the inhibition was inactive: 3.66%.

For `CSc1ccc(C(=O)NCC2(N3CCOCC3)CCCCC2)cc1`, the inhibition was inactive: 4.03%.

As for `O=C(NCC1(N2CCCCC2)CCCCC1)c1cccc([N+](=O)[O-])c1`, the inhibition is inactive: -9.63%.

Take `O=C(NCC1(N2CCCCC2)CCCCC1)c1ccc(OC(F)F)cc1`: the inhibition was inactive: -10.9%.

In the case of `CC(C)(C)n1nnnc1C(c1ccccc1OC(F)(F)F)N1CCC(n2c(=O)[nH]c3ccccc32)CC1` (configuration not stated), the inhibition is inactive: -5.3%.

In the case of `O=C(NCC1(N2CCOCC2)CCCCC1)c1cc(=O)[nH]c2ccccc12`, the inhibition was inactive: 0.22%.

As for `COc1cc(C(=O)NCC2(N3CCCCC3)CCCCC2)ccc1OC(F)F`, the inhibition is inactive: -12%.

`CC(C)c1ccc(C(=O)NCC2(N3CCOCC3)CCCCC2)cc1`: the inhibition was inactive: -3.21%.

For the compound `COc1ccc(NC2CCN(C(=O)OC(C)(C)C)CC2)cc1`, the inhibition was inactive: 1.31%.

In the case of `CN1CCN(CCOC(=O)C(O)(c2ccccc2)c2ccccc2)CC1`, the inhibition is inactive: -15.1%.

For the compound `CCCCn1nnnc1C(c1cccc2ccccc12)N1CCC(n2c(=O)[nH]c3ccccc32)CC1` (configuration not stated), the inhibition was inactive: -15.9%.

`O=C(NCC1(N2CCCCC2)CCCCC1)c1cccc(C(F)(F)F)c1`: the inhibition is inactive: 6.24%.

Turning to `CCC(c1nnnn1C(C)(C)C)N1CCC(n2c(=O)[nH]c3ccccc32)CC1` (configuration not stated), the inhibition is inactive: 1.74%.

Regarding `O=C(NCC1(N2CCOCC2)CCCCC1)c1cc(F)c(F)cc1Cl`, the inhibition was inactive: -5.69%.

With `COc1cc(OC)c(C(=O)NCC2(N(C)C)CCCCC2)cc1OC`, the inhibition was inactive: 0.29%.

`CCCCn1nnnc1C(c1ccnc2ccccc12)N1CCC(n2c(=O)[nH]c3ccccc32)CC1` (configuration not stated): the inhibition is inactive: 5.19%.

In the case of `CC(C)c1ccc(NC2CCN(C(=O)OC(C)(C)C)CC2)cc1`, the inhibition was inactive: -1.31%.

`CCCCn1nnnc1C(c1ccccc1OC(F)(F)F)N1CCC(n2c(=O)[nH]c3ccccc32)CC1` (configuration not stated): the inhibition was inactive: 7.89%.

Regarding `CN(C)c1cccc(C(=O)NCC2(N3CCCCC3)CCCCC2)c1`, the inhibition was inactive: 4.35%.

As for `COc1ccc(CN(CCCl)CCCl)cc1Cl`, the inhibition was inactive: -7.64%.

`COc1ccc(C(c2nnnn2C2CCCC2)N2CCC(n3c(=O)[nH]c4ccccc43)CC2)cc1` (configuration not stated): the inhibition was inactive: -1.06%.

For `CCCOc1ccc(C(=O)NCC2(N(C)C)CCCCC2)cc1OC`, the inhibition is inactive: -0.34%.

With `Cc1ccc(C(=O)NCC2(N(C)C)CCCCC2)o1`, the inhibition was inactive: -14.3%.

`CN1CCC(Nc2cccc(F)c2)CC1`: the inhibition was inactive: 1.42%.

Take `O=C(NCC1(N2CCCCC2)CCCCC1)c1cncc(Br)c1`: the inhibition was inactive: 3.57%.

Broadly, the inhibition is the drop in the measured response relative to a control, in per cent.
